# This is a selection; strong and weak results do not stand in their true shares. Some salts or complexes appear as unconnected parts, following the source record. Calls of active or inactive are those of the source. Cut-off read from the data, not from the text of the source: active = inhibition above about 30%; inconclusive = no clear call, values can overlap the other calls; inactive = below that.
# Biological target: Lethal factor (Bacillus anthracis) (UniProt P15917)
# Test: Bacillus anthracis LF protease inhibitors, primary screen, biochemical, multiplex microsphere, MLPCN library (AID 588501); note: plate controls were buffer without enzyme for full effect and enzyme alone for no effect
# Settings: multiplex microsphere protease cleavage assay, at 10 µM, hits give high values
row,SMILES,inhibition
1,CCCCCCCCCCCCCCCC1C[N+](C)(C)CCOP(C)(=O)O1 (stereo not drawn),inactive: -7.5%
2,CP(=O)(Nc1ccc(Cl)cc1Cl)Oc1ccccc1 (stereo not drawn),inactive: 3.5%
3,CP(=O)(OCCOc1ccccc1)OCCOc1ccccc1,inactive: -5.2%
4,COc1ccc(OP(C)(=O)Nc2ccccc2Br)cc1 (stereo not drawn),inactive: -1.4%
5,COc1ccccc1OP(C)(=O)Nc1ccc(C)c(C)c1 (stereo not drawn),inactive: -0.9%
6,O=C1C(O)=C([N+](=O)[O-])C(=O)C(O)=C1[N+](=O)[O-],inactive: 2.3%
7,Cc1cc(C)cc(OP(C)(=O)Nc2cccc(C(F)(F)F)c2)c1 (stereo not drawn),inactive: -7.6%
8,CCc1ccc(OP(C)(=O)O)cc1,inactive: 1.5%
9,CP(=O)(Nc1ccccn1)Oc1ccccc1 (stereo not drawn),inactive: -4%
10,COc1ccccc1OP(C)(=O)Nc1ccc(C)cc1C (stereo not drawn),inactive: 5.5%
11,Cc1c(NP(C)(=O)Oc2ccc(C(C)C)cc2)c(=O)n(-c2ccccc2)n1C (stereo not drawn),inactive: 3.4%
12,O=[N+]([O-])c1cc([N+](=O)[O-])c(Nc2ccccn2)c([N+](=O)[O-])c1,inactive: -1.7%
13,CN(C)CCOC(=O)C(O)(c1ccccc1)C1CCCC1 (stereo not drawn),inactive: 0.4%
14,COc1ccc(OP(C)(=O)Nc2ccccn2)cc1 (stereo not drawn),inactive: -3.5%
15,COc1ccccc1OP(C)(=O)Nc1ccc(Br)cc1 (stereo not drawn),inactive: 2%
16,CN(C)C(=O)c1c([N+](=O)[O-])cc([N+](=O)[O-])cc1[N+](=O)[O-],inactive: -2.1%
17,CP(=O)(Nc1ccc(Cl)cc1)Oc1ccc(F)cc1 (stereo not drawn),inactive: -2.2%
18,COc1ccccc1OP(C)(=O)Nc1ccccc1Br (stereo not drawn),inactive: -3.7%
19,CC(C)(C)c1ccc(OP(C)(=O)O)cc1,inactive: -4.4%
20,CP(=O)(Oc1ccccc1)N1CCOC1=O (stereo not drawn),inactive: 1.5%
21,CCc1ccc(OP(C)(=O)Nc2cccnc2)cc1 (stereo not drawn),inactive: -6.5%
22,COc1ccccc1OP(C)(=O)Nc1c(C)n(C)n(-c2ccccc2)c1=O (stereo not drawn),inactive: 3.5%
23,O=C(OCCCN1CCCC1)C(O)(c1ccccc1)C1CCCCC1 (stereo not drawn),inactive: 2.6%
24,CCN(CC)CC(O)COC(=O)C(O)(c1ccccc1)C1CCCCC1 (stereo not drawn),inactive: 3.2%
25,COc1ccc(OP(C)(=O)Nc2ccc(Br)cc2)cc1 (stereo not drawn),inactive: 0.1%
26,CP(=O)(OC12CC3CC(CC(C3)C1)C2)OC12CC3CC(CC(C3)C1)C2,inactive: -2.1%

row,SMILES,inhibition
1,CCOC(=O)c1ccc(NP(C)(=O)Oc2ccc(Cl)cc2)cc1 (stereo not drawn),inactive: -5.1%
2,Cc1c(C(c2ccc3c(c2)OCO3)c2c(C)n(C)n(-c3ccccc3)c2=O)c(=O)n(-c2ccccc2)n1C.O=[N+]([O-])c1cc([N+](=O)[O-])c(O)c([N+](=O)[O-])c1,inactive: -7.8%
3,O=[N+]([O-])c1cc([N+](=O)[O-])c(NCC2CCS(=O)(=O)C2)c([N+](=O)[O-])c1 (stereo not drawn),inactive: -1%
4,Cc1cc(-c2cccc3ccccc23)c(C)cn1.O=[N+]([O-])c1cc([N+](=O)[O-])c(O)c([N+](=O)[O-])c1,inactive: -9.1%
5,O=[N+]([O-])c1ccc(OP2(=O)COCCO2)cc1 (stereo not drawn),inactive: -3.4%
6,COc1ccc(NP(C)(=O)Oc2ccccc2OC)cc1 (stereo not drawn),inactive: -1.3%
7,CN(C)CCOC(=O)C(O)(c1ccccc1)C1CCCCC1 (stereo not drawn),inactive: -4.4%
8,CN(C)C1(CNC(=O)c2ccc(Cl)c(S(N)(=O)=O)c2)CCCCC1,inactive: -8.7%
9,COc1ccc(OP(C)(=O)Nc2cccc(Br)c2)cc1 (stereo not drawn),inactive: -9%
10,O=[N+]([O-])c1cc([N+](=O)[O-])c(C(F)(F)F)c([N+](=O)[O-])c1O,inactive: 1%
11,Cc1ccccc1NP(C)(=O)Nc1ccccc1C,inactive: 1.5%
12,CP(=O)(Nc1ccc2c(c1)OCCO2)Oc1ccccc1 (stereo not drawn),inactive: -1.2%
13,CCOP(C)(=S)SCC(=O)NC(C)(CC)C(=O)O (stereo not drawn),inactive: -3.4%
14,CP(=O)(Nc1ccc(SC(F)(F)F)cc1)Oc1ccc(F)cc1 (stereo not drawn),inactive: -7.5%
15,COc1ccc2c(c1O)-c1c(O)c(OC)cc3c1[C@H](C2)[N+](C)(C)CC3.O=[N+]([O-])c1cc([N+](=O)[O-])c([O-])c([N+](=O)[O-])c1[O-],inactive: -4.6%
16,O=C(OCCN1CCN(CCOCc2ccccc2)CC1)C(O)(c1ccccc1)c1ccccc1,inactive: -0.1%
17,O=C(OC1CN2CCC1CC2)c1ccc([N+](=O)[O-])cc1 (stereo not drawn),inactive: -4%
18,CC(C)c1ccc(OP(C)(=O)Nc2ccc(SC(F)(F)F)cc2)cc1 (stereo not drawn),inactive: 1.2%
19,CP(=O)(Nc1ccccc1F)Oc1ccccc1 (stereo not drawn),inactive: -5.1%
20,O=[N+]([O-])c1cc([N+](=O)[O-])c(Nc2ccc(Cl)cc2)c([N+](=O)[O-])c1,inactive: -3.2%
21,CCCCCOc1ccc(NP(C)(=O)Oc2ccc(Cl)cc2Cl)cc1 (stereo not drawn),inactive: 18.5%
22,O=[N+]([O-])c1cc([N+](=O)[O-])c(OC2CCCCC2O)c([N+](=O)[O-])c1 (stereo not drawn),inactive: 6.3%
23,CP(=O)(Nc1ccccc1)Oc1ccc(F)cc1 (stereo not drawn),inactive: -3.7%
24,CCN(CC)CCCOC(=O)C(O)(c1ccccc1)C1CCCCC1 (stereo not drawn),inactive: -1.8%
25,Cc1c([N+](=O)[O-])cc([N+](=O)[O-])c(Br)c1[N+](=O)[O-],inactive: -5.1%
26,COc1ccc(OP(C)(=O)Nc2ccc(SC(F)(F)F)cc2)cc1 (stereo not drawn),inactive: -0.7%

row,SMILES,inhibition
1,CCOC(=O)c1ccc(NP(C)(=O)Oc2ccc(F)cc2)cc1 (stereo not drawn),inactive: -1.8%
2,CCN(CC)CCCNc1ccccc1[N+](=O)[O-].O=[N+]([O-])c1cc([N+](=O)[O-])c(O)c([N+](=O)[O-])c1,inactive: -5.7%
3,CC1=NCCc2c1[nH]c1ccccc21.O=[N+]([O-])c1cc([N+](=O)[O-])c(O)c([N+](=O)[O-])c1,inactive: 2.7%
4,O=C(O)c1cccc(Nc2c([N+](=O)[O-])cc([N+](=O)[O-])cc2[N+](=O)[O-])c1,inactive: 3.3%
5,Cc1cc(C)cc(OP(C)(=O)Nc2ccccn2)c1 (stereo not drawn),inactive: 2.5%
6,CP(=O)(Nc1cccc(Br)c1)Oc1ccccc1 (stereo not drawn),inactive: -6.7%
7,Cc1ccc(C)c(NP(C)(=O)Oc2ccccc2)c1 (stereo not drawn),inactive: -1.4%
8,Cc1cc(C)cc(OP(C)(=O)Nc2ccc(C)cc2C)c1 (stereo not drawn),inactive: -2.4%
9,CCOC(=O)c1ccc(NP(C)(=O)Oc2cc(C)cc(C)c2)cc1 (stereo not drawn),inactive: 0.5%
10,COc1cc(C(=O)NCC2(N3CCOCC3)CCCCC2)cc(Cl)c1OC(C)C,inactive: -0.4%
11,COc1ccccc1OP(C)(=O)Nc1cccc(Br)c1 (stereo not drawn),inactive: 0.7%
12,Cc1nc2ccc3ccccc3c2s1.O=[N+]([O-])c1cc([N+](=O)[O-])c(O)c([N+](=O)[O-])c1,inactive: 0.4%
13,O=[N+]([O-])c1cc([N+](=O)[O-])c(-c2cnn(-c3ccccc3)c2)c([N+](=O)[O-])c1,inactive: 12.4%
14,CN(Cc1cccnc1)C(=O)COc1ccc(Cl)c(Cl)c1.O=[N+]([O-])c1cc([N+](=O)[O-])c(O)c([N+](=O)[O-])c1,inactive: -10.6%
15,O=[N+]([O-])c1cc([N+](=O)[O-])c(-n2nnc3ccccc32)c([N+](=O)[O-])c1,inactive: 2.1%
16,CCCOc1ccc(NP(C)(=O)Oc2ccc(Cl)cc2)cc1 (stereo not drawn),inactive: -4.3%
17,CP(=O)(Nc1ccc(SC(F)(F)F)cc1)Oc1ccccc1 (stereo not drawn),inactive: 2.6%
18,COc1ccc(-c2ccccn2)cc1.O=[N+]([O-])c1cc([N+](=O)[O-])c(O)c([N+](=O)[O-])c1,inactive: -9.2%
19,COc1ccccc1OP(C)(=O)Nc1c(C)cccc1C (stereo not drawn),inactive: -4.6%
20,CN1CCCCC1COC(=O)C1(O)c2ccccc2CCc2ccccc21 (stereo not drawn),inactive: -0.9%
21,CN(C)C1(CNC(=O)c2ccc(S(C)(=O)=O)cc2)CCCCC1,inactive: -0.1%
22,CC1=C2N=C(C=C3N=C(C(C)=C4[N-][C@@](C)([C@@H]5N=C1[C@](C)(CCC(=O)NC[C@@H](C)OP(=O)([O-])O[C@H]1[C@@H](O)[C@@H](n6cnc7cc(C)c(C)cc76)O[C@@H]1CO)[C@H]5CC(N)=O)[C@@](C)(CC(N)=O)[C@@H]4CCC(N)=O)[C@@](C)(CC(N)=O)[C@@H]3CCC(N)=O)C(C)(C)[C@@H]2CCC(N)=O.[C-]#N.[Co+3],inactive: -1.3%
23,O=[N+]([O-])c1cc([N+](=O)[O-])c(Nc2nnnn2CCO)c([N+](=O)[O-])c1,inactive: -9%
24,CCOC(=O)C(CC)C1=NC(C)(C)Cc2ccccc21.O=[N+]([O-])c1cc([N+](=O)[O-])c(O)c([N+](=O)[O-])c1 (stereo not drawn),inactive: 2.9%
25,COc1ccccc1OP(C)(=O)Nc1ccccc1 (stereo not drawn),inactive: -1%
26,CP(=O)(Nc1ccccc1Br)Oc1ccccc1 (stereo not drawn),inactive: 3.8%

row,SMILES,inhibition
1,CP(=S)(Nn1cnnc1)Oc1ccccc1 (stereo not drawn),inactive: 0.6%
2,CCCCOc1ccc(C(=O)NCC2(N3CCCCC3)CCCCC2)cc1OC,inactive: 12.1%
3,CP(=O)(Nc1ccccn1)Oc1ccc(Cl)cc1 (stereo not drawn),inactive: -0.1%
4,CCOP(C)(=S)SCC(=O)NC(C)C(=O)O (stereo not drawn),inactive: 0.2%
5,CCOC(=O)c1ccc(NP(C)(=O)Oc2ccc(OC)cc2)cc1 (stereo not drawn),inactive: -2.9%
6,CP(=O)(NC(=O)Nc1ccccc1)Oc1ccccc1 (stereo not drawn),inactive: -2.8%
7,CCc1ccc(OP(C)(=O)N2CCN(c3ccc([N+](=O)[O-])cc3)CC2)cc1 (stereo not drawn),inactive: 16.1%
8,Cc1cc(C)cc(OP(C)(=O)Nc2ccc(SC(F)(F)F)cc2)c1 (stereo not drawn),inactive: -3%
9,Cc1cccc(C)c1OP(C)(=O)Nc1ccc(SC(F)(F)F)cc1 (stereo not drawn),inactive: 0.7%
10,Cc1ccc(Nc2c([N+](=O)[O-])cc([N+](=O)[O-])cc2[N+](=O)[O-])cc1,inactive: -1.8%
11,CP(=O)(Nc1ccc(SC(F)(F)F)cc1)Oc1ccc(Cl)cc1 (stereo not drawn),inactive: -2.3%
12,CP(=O)(Oc1ccccc1)OC(c1ccccc1)C(F)(F)F (stereo not drawn),inactive: -5.2%
13,COc1ccccc1-c1ccccn1.O=[N+]([O-])c1cc([N+](=O)[O-])c(O)c([N+](=O)[O-])c1,inactive: -7.3%
14,CCN(CC)CCCOC(=O)C(O)(c1ccccc1)c1ccccc1,inactive: -2.9%
15,COc1ccccc1OP(C)(=O)Nc1cc(Cl)ccc1C (stereo not drawn),inactive: -4.8%
16,COc1ccc(OP(C)(=O)Nc2cccc(F)c2)cc1 (stereo not drawn),inactive: 0.7%
17,Cc1cc(C)cc(OP(C)(N)=O)c1 (stereo not drawn),inactive: 3.2%
18,CCOC(=O)c1ccc(NP(C)(=O)Oc2ccccc2)cc1 (stereo not drawn),inactive: -0.9%
19,COc1ccccc1OP(C)(=O)Nc1ccc(C)cc1 (stereo not drawn),inactive: -2.2%
20,Cc1ccc(NP(C)(=O)Oc2ccccc2)c(C)c1 (stereo not drawn),inactive: 1.5%
21,CC(C)(C)c1ccc(OP(C)(=O)Nc2ccc(SC(F)(F)F)cc2)cc1 (stereo not drawn),inactive: 1.4%
22,Cc1cccc(C)c1OP(C)(N)=O (stereo not drawn),inactive: 0.1%
23,O=[N+]([O-])c1ccc2c(c1)C=Nc1ccccc1O2,inactive: -1.3%
24,O=[N+]([O-])c1cc([N+](=O)[O-])c(Nc2cccnc2)c([N+](=O)[O-])c1,inactive: -17.8%
25,COc1cc(C(=O)NCC2(N3CCOCC3)CCCCC2)ccc1OCC(C)C,inactive: -2.1%

# Reference: PubChem BioAssay AID588501 (NMMLSC, 2011)
